Data as given in PMC6894885, “NCOA2 promotes lytic reactivation of Kaposi’s sarcoma-associated herpesvirus by enhancing the expression of the master switch protein RTA” (PLoS Pathogens, 2019).

Biological target: T1, GST-fused NCOA2 (human, UniProt Q15596 1-1464)
T1 construct: also called GST-NCOA2; GST-tagged NCOA2 fusion protein
Assay: pull-down

B1: His-tagged RTA (natural protein)
chain: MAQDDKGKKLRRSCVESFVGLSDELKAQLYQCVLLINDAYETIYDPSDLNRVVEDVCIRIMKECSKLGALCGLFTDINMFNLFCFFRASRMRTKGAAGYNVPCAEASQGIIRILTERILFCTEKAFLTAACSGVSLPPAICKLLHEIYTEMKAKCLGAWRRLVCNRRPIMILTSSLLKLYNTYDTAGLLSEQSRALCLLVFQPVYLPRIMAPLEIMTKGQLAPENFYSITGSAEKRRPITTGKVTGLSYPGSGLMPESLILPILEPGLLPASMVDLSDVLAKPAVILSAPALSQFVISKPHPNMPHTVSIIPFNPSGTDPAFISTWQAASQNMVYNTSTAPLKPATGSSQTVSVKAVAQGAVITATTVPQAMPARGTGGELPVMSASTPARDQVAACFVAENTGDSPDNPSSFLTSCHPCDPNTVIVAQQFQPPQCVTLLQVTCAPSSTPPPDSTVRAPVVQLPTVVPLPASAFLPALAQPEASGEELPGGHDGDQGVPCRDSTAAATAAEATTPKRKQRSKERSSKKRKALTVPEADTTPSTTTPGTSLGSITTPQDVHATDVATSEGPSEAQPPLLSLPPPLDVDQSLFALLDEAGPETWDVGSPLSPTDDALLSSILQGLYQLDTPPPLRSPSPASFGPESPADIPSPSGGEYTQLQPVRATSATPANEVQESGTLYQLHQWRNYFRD
B1: binds.
